Source: article PMC8433833, “Heteroleptic Oxidovanadium(V) Complexes with Activity against Infective and Non-Infective Stages of Trypanosoma cruzi” (Molecules, 2021)

Assays:
[1] = system: T. cruzi trypomastigotes (CL Brener strain); experiment: In vitro activity against cell-derived trypomastigotes of T. cruzi (alamar Blue); format: cell-based, Trypanosoma cruzi; settings: selectivity index
[2] = system: T. cruzi epimastigotes (CL Brener strain); experiment: In vitro activity against epimastigotes of T. cruzi (alamar Blue); format: cell-based, Trypanosoma cruzi; settings: selectivity index

O=C(N/N=C/c1c(O)ccc2ccccc12)c1ccncc1 [IN]
SI b: IC50 VERO/IC50 T. cruzi tripomastigotes [1]: ≤1
SI a: IC50 VERO/IC50 T. cruzi epimastigotes [2]: ≤1

Oc1cccc2cccnc12 [L0]
SI b: IC50 VERO/IC50 T. cruzi tripomastigotes [1]: 21.5
SI a: IC50 VERO/IC50 T. cruzi epimastigotes [2]: 1.1

Oc1c(Cl)cc(Cl)c2cccnc12 [L1, 5,7-dichloro-8-hydroxyquinolne]
SI b: IC50 VERO/IC50 T. cruzi tripomastigotes [1]: 29.5
SI a: IC50 VERO/IC50 T. cruzi epimastigotes [2]: 9.3

Oc1c(I)cc(Cl)c2cccnc12 [L2, 5-chloro-7-iodo-8-hydroxyquinoline]
SI b: IC50 VERO/IC50 T. cruzi tripomastigotes [1]: 162
SI a: IC50 VERO/IC50 T. cruzi epimastigotes [2]: 23.4

Oc1c(I)cc(I)c2cccnc12 [L3]
SI b: IC50 VERO/IC50 T. cruzi tripomastigotes [1]: 68.6
SI a: IC50 VERO/IC50 T. cruzi epimastigotes [2]: 34.8

O=[N+]([O-])c1ccc(O)c2ncccc12 [L4]
SI b: IC50 VERO/IC50 T. cruzi tripomastigotes [1]: 12.3
SI a: IC50 VERO/IC50 T. cruzi epimastigotes [2]: 4.8

CC1CS(=O)(=O)CCN1/N=C/c1ccc([N+](=O)[O-])o1 (centres unmarked) [Nifurtimox]
SI b: IC50 VERO/IC50 T. cruzi tripomastigotes [1]: 49.6
SI a: IC50 VERO/IC50 T. cruzi epimastigotes [2]: 271
